Article PMC11703096 (PLOS ONE, 2025)

Tested on: Nc1ncnc2c1ncn2[C@@H]1O[C@H](COP(=O)(O)OP(=O)(O)OP(=O)(O)O)[C@@H](O)[C@H]1O
Experiment: purified protein
Conditions: pH 7.5; 37.0 °C

Question: How did the Km turn out when (Vaccinia virus WR) was run?
Answer: 0.74 µM
